Primary screen of a compound library

The filed quantity is “Percent Effect” (%). The record does not define 0% and 100%; most values in the screen are far below 50% and negative numbers occur (in some assays of this library far below -100). Many other results are left out here, so strong results are more common than in the screen.

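Growth of Mycobacterium tuberculosis over 3 days (7H9 medium with glucose and tyloxapol); the read-out is not stated. Compounds at 500 µM. The record gives no direction; compounds that gave an IC50 in retests scored well above the rest, so higher reads as more growth inhibition. Size under these conditions: about 18,000 compounds, about 1,400 of them at 50% or above in at least one test.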

| structure | Percent Effect |
|---|---|
| `Cc1cc(C(=O)NCC(C)c2nc(C)cs2)nc(N)n1` (stereo not given) | 44.67 |
| `O=C1CN(CC2CCNC2)CCN1` (stereo not given) | 0.8873 |
| `CC(C)C(C)NC(=O)CS(=O)(=O)Cc1ccccc1` (stereo not given) | 34.33 |
| `O=C(c1cc(Br)c[nH]1)N1CCN2CCCCC2C1` (stereo not given) | 63.95 |
| `Cc1nccn1C1CCCNC1` (stereo not given) | 7.721 |
| `c1ccc2c(N3CCNCC3)cncc2c1` | 15.22 |
| `c1cn2c(n1)CCC2` | 6.831 |
| `COCC1(CNC(=O)CCCn2ccnc2)CCCC1` | 25.46 |
| `N#Cc1ccccc1N1CCCC(N)C1` (stereo not given) | 66.64 |
| `CC(NS(=O)(=O)N(C)C1CCCCC1)c1ccccn1` (stereo not given) | 76.59 |
| `NCC1CCCN(Cc2ccccc2)C1` (stereo not given) | 15.07 |
| `NCC1(CO)CC(c2ccccc2)C1` (stereo not given) | 27.04 |
| `CC(C)CC(=O)NCc1cccnc1N1CCOCC1` | -10.75 |
| `CCCNCc1ccc2c(c1)n(C)c(=O)n2C` | -1.689 |
| `O=C(Nc1ccccc1N1CCCC1=O)C1CCC1` | 7.971 |
| `CCC1CN(C)c2ccccc2CN1CCOCCO` (stereo not given) | -0.3702 |
| `Nc1nc(C(F)(F)F)ns1` | 4.315 |
| `COc1ccc(OCCN2CCC(C(N)=O)CC2)cc1` | 0.1591 |
| `Cn1ccsc1=NC(=O)CNc1ccc(C#N)cc1` | -6.622 |
| `N#CC1CC(=O)N(Cc2ccccc2)C1` (stereo not given) | 24.96 |
| `Cc1cccc2c1N(C(=O)CCc1nnc[nH]1)CC2` | -1.464 |
| `CCN(CCS(C)(=O)=O)CC(O)c1ccc(C)cc1` (stereo not given) | 23.94 |
| `CN(CC1CC(O)C1)C(=O)c1ccc2ccccc2n1` (stereo not given) | 19.04 |
| `O=C1CC(Nc2nc(C3CC3)ns2)CN1C1CC1` (stereo not given) | 16.3 |
| `CC(C)[C@H](N)C(=O)N1CCN(C2CC2)C(=O)C1` | 2.876 |
| `COc1cc(CN2CCN(C(C)=O)CC2)cc(Br)c1O` | -2.3 |
| `COc1c(C(=O)N2CCN(C)CC2)sc2ccccc12` | 45.1 |
| `Cc1cc(Cl)ccc1NC(=O)CSc1n[nH]c(N)n1` | 52.24 |
| `COc1ccc(Cl)c(S(=O)(=O)NCCC(C)N)c1` (stereo not given) | 59.09 |
| `Cc1cc(C(=O)NC2CC2)cc(S(=O)(=O)N(C)C)c1C` | 3.153 |
| `CCOc1ccc(C(=O)NC2(C)CCS(=O)(=O)C2)cn1` (stereo not given) | 19.82 |
| `CC(=O)c1csc(NC(=O)Cc2ccc(C)nc2)n1` | 39.52 |
| `CCc1n[nH]c(CC)n1` | 0.4871 |
| `O=C(NCCN1CC=CC1)c1c(O)cc(F)cc1F` | 23.32 |
| `Cn1cc(CNCC(=O)NCc2ccco2)cn1` | -3.091 |
| `O=C(NCCSc1ccccn1)C1CCCCO1` (stereo not given) | 55.5 |
| `CC(c1cc(F)ccc1F)N(C)C(=O)CCCN` (stereo not given) | -0.6615 |
| `CCCOC(=O)C(C)NC(=O)c1cccs1` (stereo not given) | 66.7 |
| `COc1ccc(Cl)cc1-n1nnc(C(N)=O)c1N` | 40.05 |
| `Cc1cccnc1CN(C)Cc1nccn1C` | 32.99 |
| `CN(C)c1ncccc1C(=O)OCCN1CCOC1=O` | 9.962 |
| `CC(Sc1ncccc1Br)C(=O)N(C)CCC#N` (stereo not given) | 31.44 |
| `CC(C)c1ccc(C(N)CNS(C)(=O)=O)cc1` (stereo not given) | 74.94 |
| `O=C1CC(c2cccc(Cl)c2)CC(=O)N1` | -7.465 |
| `COC(=O)NCCc1ccccc1OC` | 61.37 |
| `CC1(CO)CCCN1` (stereo not given) | 4.146 |
| `CCOc1ccc(S(=O)(=O)NC2CC2)cc1C(N)=O` | -20.27 |
| `O=C(NCC(c1ccco1)N1CCCC1)c1cnn[nH]1` (stereo not given) | -1.618 |
| `c1ccc(C2CNCCCO2)cc1` (stereo not given) | 76.5 |
| `CC(=O)c1c(F)cccc1N(C)CCC(C)O` (stereo not given) | 44.82 |
| `O=C(NC1CC1)c1cc(-c2cccs2)on1` | 41.35 |
| `Cc1cccc(OCCc2noc(C3CNC3)n2)c1` | 106.7 |
| `COCCN(C(=O)c1ccn(C)c(=O)c1)C1CCCC1` | 7.11 |
| `N#Cc1ccc(CC(N)=O)cc1` | -5.007 |
| `CC(C)NCC1CCC(=O)N1` (stereo not given) | 7.681 |
| `CSCCC(NC(N)=O)C(=O)Nc1cccc(F)c1` (stereo not given) | 4.862 |
| `CCN(C(=O)CSc1nncs1)C1CCS(=O)(=O)C1` (stereo not given) | 7.672 |
| `O=C(CN1CCc2sccc2C1)N1CCNC1=O` | 6.999 |
| `CCCNC(=O)c1cccc(NCCCO)c1` | 18.04 |
| `CCCn1cc(CNC(=O)c2ccc(=O)[nH]c2)cn1` | -7.975 |
| `COc1cc(CNC(=O)NC2CCCC2)ccc1O` | 22.13 |
| `COC(=O)c1cc(CN2CCCSCC2)oc1C` | -1.471 |
| `CC(C)COc1ccc(NC(=O)C2CCOC2)cn1` (stereo not given) | -83.43 |
| `NCc1ccccc1CN1CCC(O)CC1` | -11.64 |
| `CC1(C)OC(=O)N(CCC#N)C1(C)O` (stereo not given) | -0.7391 |
| `CC(C)(C)Sc1cc(CNC(=O)C2CCCN2)ccn1` (stereo not given) | 6.774 |

Measurements from “University of Dundee, Small-Polar-MMV Screening Library” (2021), ChEMBL document CHEMBL3988442.